Values from PubChem BioAssay AID1259414 (Drosophila RNAi Screening Center, 2018)

Aim: 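Host factors increasing or decreasing Wolbachia levels in cultured fly cells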 (primary screen)
Cell system: Drosophila JW18 cells infected with Wolbachia
Knock-down reagent: long dsRNA against Drosophila genes, 0.25 µg dsRNA per well of a 384-well plate
Timing: 5 days
Conditions: cells persistently infected with Wolbachia before knock-down; no added drug
Measurement: 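Imaged fluorescence in situ signal for Wolbachia 23S rRNA per DAPI-counted host cell, given as a robust z-score within each plate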
Direction: Wolbachia per cell robust z: higher = more Wolbachia per host cell than the plate typical
Call rule: 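Active if absolute robust z reaches 1.5 in two or more of three replicates, leaving out multi- or no-target dsRNAs, genes unexpressed in JW18 and A1 wells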
In all, the deposit lists about 24,000 reagents; this is an unselected part of those that have a named target and a result. Of all reagents, about 1,210 (5%) got an active call. 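Inactive calls also include excluded dsRNAs with several or no targets, genes unexpressed in JW18, and well A1, regardless of score.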 Entries without a mark were called inactive. Reagent sequences are not shown.

btd [DRSC18747] — Wolbachia per cell robust z, rep 1: 0.733; Wolbachia per cell robust z, rep 2: 0.779; Wolbachia per cell robust z, rep 3: 0.845
btd [DRSC29060] — Wolbachia per cell robust z, rep 1: -0.358; Wolbachia per cell robust z, rep 2: 0.755; Wolbachia per cell robust z, rep 3: -0.57
Hacl [DRSC06061] — Wolbachia per cell robust z, rep 1: -0.602; Wolbachia per cell robust z, rep 2: 1.02; Wolbachia per cell robust z, rep 3: 0.167
CG7110 [DRSC03011] — Wolbachia per cell robust z, rep 1: -0.837; Wolbachia per cell robust z, rep 2: -0.312; Wolbachia per cell robust z, rep 3: -0.464
CG7110 [DRSC03012] — Wolbachia per cell robust z, rep 1: 0.748; Wolbachia per cell robust z, rep 2: 0.781; Wolbachia per cell robust z, rep 3: 0.871
Gem2 [DRSC09721] — Wolbachia per cell robust z, rep 1: 0.767; Wolbachia per cell robust z, rep 2: -0.789; Wolbachia per cell robust z, rep 3: -0.961
CR9337 [DRSC03212] — Wolbachia per cell robust z, rep 1: 0.619; Wolbachia per cell robust z, rep 2: 1.14; Wolbachia per cell robust z, rep 3: 0.412
CR9337 [DRSC29798] — Wolbachia per cell robust z, rep 1: -0.553; Wolbachia per cell robust z, rep 2: -0.0298; Wolbachia per cell robust z, rep 3: 0.832
RNF220 [DRSC15652] — Wolbachia per cell robust z, rep 1: -0.27; Wolbachia per cell robust z, rep 2: 0.901; Wolbachia per cell robust z, rep 3: -0.131
RNF220 [DRSC28017] — Wolbachia per cell robust z, rep 1: -0.758; Wolbachia per cell robust z, rep 2: -1.1; Wolbachia per cell robust z, rep 3: -1.69
NfI [DRSC17158] — Wolbachia per cell robust z, rep 1: -1.47; Wolbachia per cell robust z, rep 2: 0.192; Wolbachia per cell robust z, rep 3: -8.91
yellow-d [DRSC04589] — Wolbachia per cell robust z, rep 1: 0.966; Wolbachia per cell robust z, rep 2: -1.13; Wolbachia per cell robust z, rep 3: 0.617
yellow-d [DRSC26933] — Wolbachia per cell robust z, rep 1: 0.287; Wolbachia per cell robust z, rep 2: 0.158; Wolbachia per cell robust z, rep 3: 1.15
